Source: patent US6809101B2, “Compounds having anti-hepatitis C virus effect” (priority 2000, dated 2004)
Structures were worked out from names or drawings and are uncertain.

The chains behind the UniProt entries cited, without tags or fusion partners. Residues count along the entry.
UniProt P27958, 2421-3011 limits assumed: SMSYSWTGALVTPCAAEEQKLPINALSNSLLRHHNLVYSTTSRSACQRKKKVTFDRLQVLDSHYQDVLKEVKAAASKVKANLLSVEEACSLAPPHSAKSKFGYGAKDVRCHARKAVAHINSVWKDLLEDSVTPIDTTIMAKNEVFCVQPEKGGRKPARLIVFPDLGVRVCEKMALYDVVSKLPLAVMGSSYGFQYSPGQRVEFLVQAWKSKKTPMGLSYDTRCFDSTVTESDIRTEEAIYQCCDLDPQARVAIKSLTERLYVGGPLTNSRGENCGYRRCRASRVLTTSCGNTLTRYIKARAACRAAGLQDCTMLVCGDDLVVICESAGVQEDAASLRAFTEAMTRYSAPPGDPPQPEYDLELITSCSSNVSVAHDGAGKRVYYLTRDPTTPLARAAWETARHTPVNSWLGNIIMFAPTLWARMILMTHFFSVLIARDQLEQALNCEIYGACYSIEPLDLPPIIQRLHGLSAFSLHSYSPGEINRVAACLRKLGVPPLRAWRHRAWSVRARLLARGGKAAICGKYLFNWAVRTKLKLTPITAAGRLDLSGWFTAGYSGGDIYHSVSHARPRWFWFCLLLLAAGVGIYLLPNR
UniProt P19711, 3270-3988 limits assumed: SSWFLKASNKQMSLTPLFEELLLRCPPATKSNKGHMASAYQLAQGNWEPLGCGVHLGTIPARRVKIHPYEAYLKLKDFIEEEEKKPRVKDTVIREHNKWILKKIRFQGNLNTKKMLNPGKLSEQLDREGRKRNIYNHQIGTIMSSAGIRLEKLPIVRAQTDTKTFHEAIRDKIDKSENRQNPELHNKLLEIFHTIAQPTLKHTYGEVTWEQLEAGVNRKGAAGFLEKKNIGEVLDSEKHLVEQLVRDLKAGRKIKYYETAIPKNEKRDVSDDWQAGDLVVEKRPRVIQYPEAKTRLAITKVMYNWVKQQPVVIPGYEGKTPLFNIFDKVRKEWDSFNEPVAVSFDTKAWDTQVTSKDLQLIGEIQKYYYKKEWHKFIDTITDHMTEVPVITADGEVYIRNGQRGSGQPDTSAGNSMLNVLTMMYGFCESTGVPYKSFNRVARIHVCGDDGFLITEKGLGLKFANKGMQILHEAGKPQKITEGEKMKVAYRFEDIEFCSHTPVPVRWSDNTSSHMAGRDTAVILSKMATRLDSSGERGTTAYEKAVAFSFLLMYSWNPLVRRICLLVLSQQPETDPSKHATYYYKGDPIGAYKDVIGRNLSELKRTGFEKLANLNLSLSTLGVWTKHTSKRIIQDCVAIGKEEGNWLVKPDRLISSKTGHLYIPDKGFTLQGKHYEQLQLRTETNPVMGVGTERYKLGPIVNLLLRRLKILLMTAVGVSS

Key:
[1] = molecular target: HCV RNA-dependent RNA polymerase (UniProt P27958); assay: Inhibitory activity against HCV RNA-dependent RNA polymerase (Experiment Example 1); conditions: Experimental example 1; poly(A) template, oligo(U)12 primer, 3H-UTP substrate, enzyme reaction 25° C. for 30 min
Text: Inhibitory Activity Against HCV RNA-Dependent RNA Polymerase
(1) Preparation of Hepatitis C Virus (HCV) RNA-Dependent RNA Polymerase
It was collected several cDNA clones of HCV RNA-dependent RNA polymerase from plasma of people infected with HCV, RNA-dependent RNA polymerase was expressed by using insect cell or E. coli from these clones. RNA-dependent RNA polymerase in cell extract was purified by anion-exchange chromatography, heparin-affinity chromatography, poly U-affinity chromatography, cation-exchange chromatography, gel filtration chromatography, and the like. The preparation was done at about 4° C. under low temperature condition, as solution dissolving enzyme was used Tris buffer (pH 7.5) containing ethylenediamine tetraacetic acid (1 mM), dithiothreitol (10 mM), and glycerol (20%). The purified enzyme was kept at 4° C. or −20° C. until it was used for assay.
(2) Method of HCV RNA-Dependent RNA Polymerase Assay […]
(8) Radioactivity was measured by using scintillation counter.
(9) The percentage of inhibition was calculated by replacing the measured value of radioactivity (unit; ccpm) into the following expression.
The percentage of inhibition=100−(the measured value in presence of test compound−the measured value in absence of enzyme)÷(the measured value in absence of test compound−the measured value in absence of enzyme)×100. […]

[2] = molecular target: RNA-dependent RNA polymerase (RdRp) of bovine virus diarrhea virus (BVDV) (Bovine viral diarrhea virus, UniProt P19711); assay: Inhibitory activity against BVDV RNA-dependent RNA polymerase (Experiment Example 2); conditions: Experimental example 2; same way as experiment example 1
Text: Inhibitory Activity Against BVDV RNA-Dependent RNA Polymerase
Inhibitory activity against RNA-dependent RNA polymerase (RdRp) of bovine virus diarrhea virus (BVDV) was experimented too in the same way in experiment example 1.

Cc1cnoc1C(O)=C1SC(=S)NC1=O [Compound I-27, 5-[1-Hydroxy-1-(4-methylisoxazol-5-yl)]methylene-2-thioxothiazolidin-4-one]
IC50 for HCV RdRp [1]: 7.1 µg/mL
IC50 for BVDV RdRp [2]: 24 µg/mL
